Experimental data taken from patent US11723944B2 (priority 2015, dated 2023).

Chains of the proteins cited; added tags and fusions are not shown. Lines headed by an entry give the natural chain unless they say otherwise; changes in a name come on top.
UniProt P0DPI0: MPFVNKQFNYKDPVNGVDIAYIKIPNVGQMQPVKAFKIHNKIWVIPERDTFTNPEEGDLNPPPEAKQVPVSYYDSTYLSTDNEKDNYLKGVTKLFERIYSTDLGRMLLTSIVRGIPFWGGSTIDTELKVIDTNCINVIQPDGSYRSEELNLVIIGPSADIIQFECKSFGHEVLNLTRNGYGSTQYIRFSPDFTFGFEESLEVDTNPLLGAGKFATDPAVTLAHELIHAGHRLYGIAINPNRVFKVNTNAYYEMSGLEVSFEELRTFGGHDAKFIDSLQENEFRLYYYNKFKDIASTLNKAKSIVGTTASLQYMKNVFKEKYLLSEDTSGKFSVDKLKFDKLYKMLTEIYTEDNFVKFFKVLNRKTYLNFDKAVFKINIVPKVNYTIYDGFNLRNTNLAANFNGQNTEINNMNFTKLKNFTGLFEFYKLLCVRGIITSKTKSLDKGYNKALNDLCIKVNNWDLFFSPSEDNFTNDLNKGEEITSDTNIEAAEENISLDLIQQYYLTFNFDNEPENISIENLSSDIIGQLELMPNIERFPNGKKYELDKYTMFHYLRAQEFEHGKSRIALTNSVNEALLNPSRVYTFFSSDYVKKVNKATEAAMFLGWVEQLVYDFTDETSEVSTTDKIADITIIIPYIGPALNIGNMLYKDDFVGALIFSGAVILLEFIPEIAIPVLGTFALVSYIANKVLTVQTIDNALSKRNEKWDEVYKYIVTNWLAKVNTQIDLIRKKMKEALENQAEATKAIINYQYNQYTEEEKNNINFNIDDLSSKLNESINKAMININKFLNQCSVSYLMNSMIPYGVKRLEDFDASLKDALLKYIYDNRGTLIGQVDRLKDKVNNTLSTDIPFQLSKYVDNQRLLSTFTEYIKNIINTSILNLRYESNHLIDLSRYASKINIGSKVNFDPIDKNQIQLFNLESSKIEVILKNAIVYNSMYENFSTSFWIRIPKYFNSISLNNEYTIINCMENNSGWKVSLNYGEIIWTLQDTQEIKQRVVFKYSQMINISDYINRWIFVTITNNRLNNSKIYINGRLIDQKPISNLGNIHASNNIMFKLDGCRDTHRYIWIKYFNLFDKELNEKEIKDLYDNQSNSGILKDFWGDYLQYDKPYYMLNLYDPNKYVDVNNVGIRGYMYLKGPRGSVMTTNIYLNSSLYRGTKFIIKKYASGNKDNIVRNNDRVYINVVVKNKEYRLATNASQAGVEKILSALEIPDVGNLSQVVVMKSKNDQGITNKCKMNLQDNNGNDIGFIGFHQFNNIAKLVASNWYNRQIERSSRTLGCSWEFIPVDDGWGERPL

Columns and labels:
hiPSC-derived neurons = assay: Cell penetration of STP-DBCO-Cy5; conditions: 1 μM in neuronal media, 30 minutes, live imaging
BoNT/A LC = BoNT/A LC (Clostridium botulinum, UniProt P0DPI0); conditions: reported peptidomimetic inhibitor from a structure-based search; cited from earlier work

| Substance | cytosolic delivery of polar cargo (hiPSC-derived neurons) | inhibition of BoNT LC in vitro (BoNT/A LC) |
| --- | --- | --- |
| Cy5-DBCO-Lys(N3)-pliyIrlIrGqf | Cy5 in the cytosol | – |
| Dab(Dinitrophenol)-RWT-Dab-ML | – | low nanomolar inhibition |
